In patent publication US20160106813A1 (CENTRE NATIONAL DE LA RECHERCHE SCHIENTIFIQUE (CNRS), priority 2013, published 2016):

Test system: HIV-1 JRCSF
Format: cell-based
Conditions: MDLCs pretreated with the peptide, pulsed with HIV-1 JRCSF (R5), co-cultured a week with CD4+ TCs
Experimental: Peripheral blood mononuclear cells (PBMCs) from healthy donors were separated from whole blood by a standard Ficoll gradient. CD14+ monocytes and CD4+ TCs were obtained from PBMCs by negative magnetic selection (Stemcell Technologies, Grenoble, France) according to the manufacturer's instructions. MDLC were prepared and maintained as described (Masterson et al., Blood 100:701-703; Geissmann et al., J Exp Med 187:961-966.)

Substance: Cys(Acm)2,7-h-alpha-CGRP [reference compound]
- HIV-1 transfer from Langerhans cells to TCs (in words): ineffective
